Assay results taken from article doi:10.1101/777375.
Tags and fusion partners may be left off the protein sequences shown.

Biological target: T1, VxrB (Vibrio cholerae) (UniProt Q9KM23)
T1 sequence (looked up): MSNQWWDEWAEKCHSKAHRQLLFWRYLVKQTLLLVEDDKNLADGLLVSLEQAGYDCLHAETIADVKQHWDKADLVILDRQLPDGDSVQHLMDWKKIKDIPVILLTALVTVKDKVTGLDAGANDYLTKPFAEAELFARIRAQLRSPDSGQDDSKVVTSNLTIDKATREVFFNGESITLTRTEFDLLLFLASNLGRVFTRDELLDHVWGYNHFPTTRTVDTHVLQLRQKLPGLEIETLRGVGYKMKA
Experiment: EMSA
Settings: residues 1-245

Q: Does “ATTCTATCAGCATTTTTTTACCAATGCTAATACTTATCTGATCTCACTAT (double strand) [VC0680 (murJ) MP50]” bind?
A: binds

Q: Does “AAACCCTTTTTTAGTTCTTTTAGTTTCTTTACAATTTTCTGATAATCGAG (double strand) [VC2635 (pbp1a) FP1P50]” bind?
A: binds

Q: Does “AACGCGTCATCTTTTCAACTTCTCACATTAAGTTGTTCTAAATTCAACGA (double strand) [VC0969 M50]” bind?
A: binds

Q: Does “AGAGCCTTTCGGTTATTATTTTGTCACGTCTTTGCTAAAAATGAGAAAAG (double strand) [VC2213 M50]” bind?
A: binds

Q: Does “AAAGATCATTTGTCGCTGAGAACTTGACCTCATCCCTACAAACGTCGAAC (double strand) [VC1272 FP1P50]” bind?
A: binds

Q: Does “CAATATCATGCAAATGCATGGTTCTGACCAAAACTTTACGTAACTATTAC (double strand) [VC1655 (mgtE) M50]” bind?
A: binds

Q: Does “ACTGAGTTTGGGTCAACCCTAGGTCAATTCTGGTTAGGCGGCGCACAAAC (double strand) [VC0370 M50]” bind?
A: binds

Q: Does “TTAACCAAGTTAGAGTATTGACGTCAGATTTTTACCAAAAAACTTATTTC (double strand) [VC2037 M50]” bind?
A: binds

Q: Does “TAAAACCGCCCTATTACTCACTGTTGTTGGTGCCGTTCTGCTCACTGGCT (double strand) [VCA0594 FP1P50]” bind?
A: binds

Q: Does “GCTATTCGGTTAAAAAAACCGCGCAATTTGACCCAAGCTTAACTTAACGA (double strand) [VC2686 (zapB) FP1P50]” bind?
A: binds
